Anti-infective test results gathered from many reports (values: NIAID ChemDB through PubChem).

Common to all: tests in culture; agent: HIV-1

Neighbouring rows are from separate reports. An empty or dashed field is not shown. ECn is the concentration giving n% inhibition of infection, replication or growth.

SMILES,cells,strain or isolate,read by,mutations,setting,read-out,value
COc1cnc(-n2cnc(C)n2)c2[nH]cc(C(=O)C(=O)N3CCc4c(ncnc4-c4ccccc4)N3)c12,MT-2,LAI,luciferase / reporter gene,,,EC50,<0.5 µM
Cc1cccc2c1CP(=O)(OC[C@@H]1CC[C@H](n3ccc(=O)[nH]c3=O)O1)CC2,CEM,IIIB,syncytia,,,EC50,>50 µM
CCOC(=O)c1cc(C(=O)c2ccccc2)n2ccc(C(=O)N[C@@H](C(=O)OC)c3ccccc3)cc12,H9,,p24 / antigen,,,EC50,49.5 µM
CC(=O)c1ccc(N2CCN(c3cc4c(cc3N)c(=O)c(C(=O)O)cn4C)CC2)cc1,MT-4,IIIB,cytopathic effect / MTT,,,EC50,>0.157 µg/mL
O=C1[C@@H](Cc2ccccc2)NC(=S)N1c1ccccc1,MT-4,,cytopathic effect / XTT,,,EC50,<100 µg/mL
CC(C)(C)S(=O)(=O)C[C@@H](Cc1cccc2ccccc12)C(=O)N[C@@H](CC(N)=O)C(=O)N[C@@H](Cc1ccccc1)[C@H](O)C(O)CN1CCC[C@H]1C(F)(F)F,PBL,,,,,EC50,16 µM
CCOC(=O)c1cc(C(=O)c2ccccc2)n2ccc(C(=O)NCc3ccccn3)cc12,H9,,p24 / antigen,,,EC50,47 µM
CC1=C[C@H](Cn2cnc3c(NC4CC4)nc(N)nc32)C[C@@H]1CO,MT-4,IIIB,MTT,,,EC50,>100 µg/mL
Nc1nc2c(ncn2[C@@H]2O[C@H](CO)[C@@H](F)[C@H]2O)c(=O)[nH]1,MT-4,,cytopathic effect,,,EC50,>877 µM
Cc1cc(C)c(S(N)(=O)=O)c(C)c1-c1c2nc(c(-c3c(C)cc(C)c(S(N)(=O)=O)c3C)c3ccc([nH]3)c(-c3c(C)cc(C)c(S(N)(=O)=O)c3C)c3nc(c(-c4c(C)cc(C)c(S(N)(=O)=O)c4C)c4ccc1[nH]4)C=C3)C=C2,MT-4,IIIB,cytopathic effect / MTT,,,EC50,>80 µg/mL
COC(=O)C(=O)c1csc(NC(=O)NCCc2ccccc2)n1,MT-4,,cytopathic effect / XTT,,,EC50,>100 µg/mL
O=c1ccn([C@H]2C=C[C@@H](CO)O2)c(=O)[nH]1,CEM,IIIB,syncytia,,,EC50,>250 µM
Cc1ccc(-c2ccc(NC(=O)N3CCC4(CCO4)CC3)cc2)cc1,TZM-bl,25710,luminescence,,pseudotyped,EC50,>30 µM
CCOC(=O)c1cc(C(=O)c2ccccc2)n2cccc(C(=O)NCc3ccccn3)c12,H9,,p24 / antigen,,,EC50,69.7 µM
COc1cc([C@H]2c3c(cc4c(c3OC)OCO4)C[C@H]3COC(=O)[C@@H]32)cc(C)c1OC,MT-4,IIIB,cytopathic effect / MTT,,,EC50,25.9 µM
CCC(C)C(NC(=O)c1ccccc1SSc1ccccc1C(=O)NC(C(=O)O)C(C)CC)C(=O)O,MT-4,A17,cytopathic effect / XTT,Pyridone-resistant,,EC50,5.1 µM
CCCCCCCCCCCCCCCCCCOP(=O)(O)OCCC=C(c1cc(Cl)c(O)c(C(=O)O)c1)c1cc(Cl)c(O)c(C(=O)O)c1,CEM + CEM-SS,RF,cytopathic effect / XTT,,,EC50,>74 µM
Cc1cc(C#N)cc(C)c1Oc1nc(Nc2ccc(C#N)cc2)ncc1SCC(=O)NCCN1CCOCC1,MT-4,,MTT,Y188L,,EC50,0.0451 µM
O=c1cc(-c2cccc3c2Sc2ccccc2S3)oc(N2CCOCC2)c1,C8166,RT-K65R L74V M184V,cytopathic effect / XTT,,,EC50,2.8 µM
Cc1cc(C)nc(NC(=S)NCCc2c(Cl)cccc2Cl)c1,MT-2,IIIB,MTT,,,EC50,0.07 µM
C=CCNC(=O)CSc1cnc(Nc2ccc(C#N)cc2)nc1Oc1c(C)cc(C#N)cc1C,MT-4,,MTT,Y188L,,EC50,0.0452 µM
Nc1ncnc2c1ncn2C1CC(CO)(CO)C1,CEM,LAV,cytopathic effect,,,EC50,>30 µg/mL
N#C/C(=C1\CCN(C(=O)C(=O)c2c[nH]c3c(-n4ccnn4)ncc(F)c23)NC1)c1ccccc1,MT-2,LAI,luciferase / reporter gene,,,EC50,<0.5 µM
O=S(=O)(O)c1cc(N=Nc2cc(S(=O)(=O)O)c3cccnc3c2O)ccc1CCc1ccc(N=Nc2cc(S(=O)(=O)O)c3cccnc3c2O)cc1S(=O)(=O)O,CEM,,XTT,,,EC50,1.7 µM
CC(C)(C)NC(=O)[C@H]1N(C(=O)[C@@H](O)[C@H](Cc2ccccc2)NC(=O)CC(C)(C)C(=O)O)CSC1(C)C,MT-4,,,,,EC50,52 µM
CCCCCCC(=O)Oc1ccc(COP(=O)(OCc2ccc(OC(=O)CCCCCC)cc2)OP(=O)([O-])OC[C@@H]2CC[C@H](n3ccc(=O)[nH]c3=O)O2)cc1,CEM,IIIB,syncytia,,,EC50,26 µM
COc1cccc2[nH]cc(C(=O)C(=O)N3CCN(C(=O)c4ccccc4)C[C@H]3C)c12,Macrophage/CCR5,BaL,p24 / ELISA,,,EC50,0.0084 µM
CCCCCCCCCCCCCCCCOP(=O)(O)OCCC=C(c1cc(Cl)c(O)c(C(=O)O)c1)c1cc(Cl)c(O)c(C(=O)O)c1,CEM + CEM-SS,RF,cytopathic effect / XTT,,,EC50,>84 µM
Cc1nc2cc3nn2c(c1[C@H](OC(C)(C)C)C(=O)O)N1CCC(C)(/C=C/C=C/COc2ccc(Cl)cc2-c2cccc-3c2)CC1,MT-2,NL4-3,,,10% FBS,EC50,0.145 µM
COCCNC(=O)CSc1cnc(Nc2ccc(C#N)cc2)nc1Oc1c(C)cc(C#N)cc1C,MT-4,,MTT,E138K,,EC50,0.0087 µM
CCOC(=O)c1cc(C(=O)c2ccccc2)n2ccc(C(=O)N[C@H](C)c3ccccc3)cc12,H9,,p24 / antigen,,,EC50,41 µM
O=C1[C@@H](Cc2ccccc2)NC(=S)N1Cc1ccccc1,MT-4,,RT activity,,,EC50,<100 µg/mL
Cc1nc2cc3nn2c(c1[C@H](OC(C)(C)C)C(=O)O)-c1ccc2c(c1Cl)N(C/C=C/CCCc1cccc(c1)-c1cccc-3c1)CCO2,MT-2,NL4-3,,,10% FBS,EC50,0.722 µM
CCc1c(Sc2ccccc2)n(COCc2ccccc2)c(=O)[nH]c1=O,MT-4,A018C,p24,,,EC50,0.01 µM
O=C1c2c(O)c(=O)n([C@@H]3CCCC[C@@H]3O)c(=O)n2CCN1Cc1ccc(F)cc1,MT-4,,p24,,,EC50,<10 µM
CC(=O)NS(=O)(=O)c1ccc(NC(=S)NCCc2ccccc2F)cc1,MT-2,IIIB,MTT,,,EC50,1.23 µM
NC(=O)C[C@H](NC(=O)c1ccc2ccccc2n1)C(=O)N[C@@H](Cc1ccccc1)[C@H](O)CN1CC[C@H]2CCCC[C@H]2[C@H]1C(F)(F)F,PBL,,,,,EC50,7.8 µM
Cc1cc(C)c(-c2c3nc(c(-c4c(C)cc(C)cc4C)c4ccc([nH]4)c(-c4c(C)cc(C)cc4C)c4nc(c(-c5c(C)cc(C)cc5C)c5ccc2[nH]5)C=C4)C=C3)c(C)c1,MT-4,IIIB,cytopathic effect / MTT,,,EC50,1 µg/mL
CCOC(=O)c1nnsc1NCCCCNc1snnc1C(=O)OCC,MT-4,IIIB,MTT,,,EC50,>105 µM
COc1ccc([C@H]2c3c(cc4c(c3OC)OCO4)C[C@H]3CSC[C@@H]32)cc1OCc1ccccc1,H9,IIIB,p24,,,EC50,1.09 µM
C=CSC(NC(=O)[C@H](Cc1ccccc1)NS(=O)(=O)N1CCOCC1)C(=O)N[C@@H](CC1CCCCC1)[C@@H](O)C[C@H](C(=O)NCCCC)C(C)C,CEM,IIIB,cytopathic effect / XTT,,,EC50,>13 µM
Cc1cc(C#N)cc(C)c1Oc1nc(Nc2ccc(C#N)cc2)ncc1SCC(=O)NCCN1CCN(C(=O)OC(C)(C)C)CC1,MT-4,,MTT,L100I,,EC50,0.0702 µM
O=C(NCCc1ccccc1)Nc1cnccn1,MT-4,,cytopathic effect / XTT,,,EC50,<1 µg/mL
CC1=C/C(=C\[C@H](C)[C@@]23OC(=O)C[C@]2(C)[C@H]2C[C@]4(O)C[C@@H]5C(=O)OC(C)(C)[C@]5(C)CC[C@@H]4[C@H]2O3)OC1=O,,,cytopathic effect,,,EC50,>100 µg/mL
CC(C)[C@H](NC(=O)[C@H](Cc1cccc2ccccc12)CS(=O)(=O)C(C)(C)C)C(=O)N[C@@H](Cc1ccccc1)[C@@H](O)C(O)CN1CCCC[C@H]1C(F)(F)F,PBL,,,,,EC50,5.2 µM
O=C(NCCc1ccccc1)Nc1nc2ccc(F)cc2s1,MT-4,,RT activity,,,EC50,<100 µg/mL
O=C(CCCCc1ccccc1)c1ccc(O)cc1,,,cytopathic effect,,,EC50,2.14 µg/mL
Cc1cc(C#N)cc(C)c1Oc1nc(Nc2ccc(C#N)cc2)ncc1SCC(=O)NCc1ccc(O)cc1,MT-4,,MTT,Y188L,,EC50,0.0963 µM
CC(C)n1c(=O)c(O)c2n(c1=O)CCN(Cc1ccc3ccccc3n1)C2=O,MT-4,,p24,,,EC50,<10 µM
Cc1cc(C#N)cc(C)c1Oc1nc(Nc2ccc(C#N)cc2)ncc1SCC(=O)NC1CCN(C(=O)OC(C)(C)C)CC1,MT-4,,MTT,Y188L,,EC50,0.1715 µM
CC1=C[C@H](Cn2cnc3c(=O)[nH]cnc32)C[C@@H]1CO,MT-4,IIIB,MTT,,,EC50,>100 µg/mL
CC(C)n1c(=O)c(O)c2n(c1=O)CCN(Cc1ccc3ccccc3c1)C2=O,MT-4,,p24,,,EC50,<10 µM
COc1cnc(-n2cnc(C)n2)c2[nH]cc(C(=O)C(=O)N3CC/C(=C(/C#N)c4ccccc4)CN3C)c12,MT-2,LAI,luciferase / reporter gene,,,EC50,0.4456 µM
O=C(NCCc1ccccc1)Nc1nncs1,MT-4,,cytopathic effect / XTT,,,EC50,<1 µg/mL
O=S(=O)(O)c1cc(N=Nc2cc(S(=O)(=O)O)c3ccccc3c2O)ccc1/C=C/c1ccc(N=Nc2cc(S(=O)(=O)O)c3ccccc3c2O)cc1S(=O)(=O)O,CEM,,XTT,,,EC50,0.49 µM
COc1cc([C@H]2c3c(cc(OC)c(OC)c3OC)C[C@H]3CSC[C@@H]32)cc(OC)c1OC,MT-4,IIIB,cytopathic effect / MTT,,,EC50,0.8 µM
CC(C)=CCOc1cc(NC(=S)c2ccsc2C)ccc1Cl,CEM + CEM-SS,NL4-3,p24,RT-V106I,,EC50,0.08 µM
Cn1cc(C(=O)O)c(=O)c2cc(N)c(N3CCN(c4cnccn4)CC3)cc21,PBMC,IIIB,p24,,,EC50,0.045 µg/mL
COc1cc(CCNC(=S)Nc2cccc(C)n2)cc(OC)c1OC,MT-2,IIIB,MTT,,,EC50,8.15 µM
Cc1cc(C#N)cc(C)c1Oc1nc(Nc2ccc(C#N)cc2)ncc1SCC(=O)NCC1CCCO1,MT-4,,MTT,RES056,,EC50,0.5179 µM
Cc1cn(C2CC(CO)(CO)C2)c(=O)[nH]c1=O,CEM,LAV,cytopathic effect,,,EC50,>30 µg/mL
O=C(NCCc1ccccc1)Nc1ccccn1,MT-4,,cytopathic effect / XTT,,,EC50,>100 µg/mL
Nc1nc2c(ncn2[C@@H]2O[C@H](CO)C3OC32)c(=O)[nH]1,MT-4,,cytopathic effect,,,EC50,249 µM
Cc1cc(C#N)cc(C)c1Oc1nc(Nc2ccc(C#N)cc2)ncc1SCC(=O)Nc1ccc(S(C)(=O)=O)cc1,MT-4,,MTT,Y188L,,EC50,0.2095 µM
S=C(NCCc1ccccc1)N1CCOCC1,MT-4,,cytopathic effect / XTT,,,EC50,>10 µg/mL
COc1c2c(cc3c1[C@H](c1ccc(O)c(Oc4ccccc4)c1)[C@H]1C(=O)OC[C@@H]1C3)OCO2,MT-4,IIIB,,,,EC50,5.17 µM
Nc1ncnc2c1ncn2[C@H]1C=C[C@@H](OCP(=O)(O)O)O1,MT-4,,cytopathic effect,,,EC50,1.5 µM
NC(=O)C[C@H](NC(=O)c1ccc2ccccc2n1)C(=O)N[C@@H](Cc1ccccc1)[C@@H](O)CN1CCC[C@H]1C(F)(F)F,PBL,,,,,EC50,>1 µM
CCCCCCCCCCCC(=O)Oc1ccc(COP(=O)(OCc2ccc(OC(=O)CCCCCCCCCCC)cc2)OP(=O)([O-])OC[C@@H]2C=C[C@H](n3ccc(=O)[nH]c3=O)O2)cc1,CEM,IIIB,syncytia,,,EC50,>50 µM
O=c1nccc(NC(=S)NCCc2ccccc2)[nH]1,MT-2,IIIB,MTT,,,EC50,0.125 µM
CC(C)C(=O)Oc1ccc(COP(=O)(OCc2ccc(OC(=O)C(C)C)cc2)OP(=O)([O-])OC[C@@H]2CC[C@H](n3ccc(=O)[nH]c3=O)O2)cc1,CEM,IIIB,syncytia,,,EC50,>50 µM
NC(=O)C[C@H](NC(=O)c1ccc2ccccc2n1)C(=O)N[C@@H](Cc1ccccc1)[C@H](O)CN1CCC[C@H]1C(F)(F)F,PBL,,,,,EC50,0.87 µM
COc1ccc(OC)c(CCNC(=S)Nc2ccccn2)c1,MT-2,IIIB,MTT,,,EC50,0.126 µM
Nc1ccn([C@H]2CC[C@@H](CO)O2)c(=O)n1,MT-2,LAV,cytopathic effect / trypan blue,,,EC50,<1 µM
CN(C)C(=O)CC1Cn2c(c(O)c(=O)n(C3CCCC3)c2=O)C(=O)N1Cc1ccc(F)cc1,MT-4,,p24,,,EC95,<10 µM
CCCc1cc(=O)oc2c3c(c4c(c12)OC(C)(C)C=C4)O[C@H](C)C[C@@H]3O,MT-4,090 L697661 resistant,p24,,,EC50,0.185 µM